B1: mAb14234 (antibody, V domains shown)
VH: QVQLVESGGGVVQPGRSLRLSCAASGFTFSSYGIHWVRQAPGKGLEWVAIIWYDGSEKYYADSVKGRFTISRDNSKNTLFLQMNSLEAEDTAVYYCARGPDLLTGYYNYFYYGMDVWGQGTTVTVSS
VL: QSVLTQPPSVSGAPGQRVTISCTGSSSNIGIGYDVHWYQQLPGTVPKLLIYGNTNRPSGVPDRFSGSKSGTSASLAITGLQAEDEADYYCQSYDSSLSSYVFGTGTKVTVLG
B2: mAb14292 (antibody, V domains shown)
VH: EVQLVESGGGLVQPGGSLRLSCVASGFAFSTYEMNWVRQAPGKGLEWVSYISSSGSTIYYADSVKGRLTISRDNVKNSLYLQMNSLRVEDTAIYYCARDAIRNNDILTDPATFDPWGQGTLVTVSS
VL: not shown
B3: mAb15156 (antibody, V domains shown)
VH: QLQLQESGPGLVKSSETLSLTCTVSASITGSTYYWGWIRQPPGKGLEWIGSIYYSGTTYYKASLKSRVTISVDTSKNQFSLKLTSVTVADTAVYYCVSHLLGNYHKYGMDVWGQGTTVTVSS
VL: QSVLTQPPSASGTPGQRVTISCSGSRSNIGINTVNWYQQFPGTALNLLIFSDNQRPSGVPDRFSGSKSGTSASLAISGLQSEDEADYYCAAWDDSLNGPDWVFGGGTKLTVLG
B4: mAb15157 (antibody, V domains shown)
VH: EVQLVESGGALVQPGGSLRLSCAASGFPFTIYAMTWVRQAPGKGLEWVSVITGSGDSTYYADSVKGRFTISRDNSKNTLYLQMNSLRAEDTAVYYCVKTGEGFFYYYYGMDVWGQGTTVTVSS
VL: QSVLTQPPSVSAAPGQKVTISCSGSSSNIGNSYISWYQQLPGTAPKLLIYVNNKRPSGIPDRFSGSKSGTSATLGITGLQTGDEADYYCGTWDSSLSAGVFGSGTKVTVLG
B5: mAb15158 (antibody, V domains shown)
VH: EVQLVESGGGLVQPGGSLRLSCAASGFSFSSNWMSWVRQAPGKGLEWVGNINQDGSEKYYVDSVEGRFTISRDNAKKSLYLQMNSLRAEDTAVYYCARDLGVLWFGDFVDWGQGALVTVSS
VL: DIQMTQSPSSLSASVGDRVTITCRASQAISNSLAWYQQKPGKAPKLLLYAASTLESGVPSRFSGSGSGTDYTLTISSLQPEDFATYYCLQYYGSPRTFGQGTKVEIKR
B6: mAb15159 (antibody, V domains shown)
VH: EVQLVESGGGLVQPGGSLRLSCAASGITVSSNYMTWVRQAPGKGLEWVSLIYSGGSTFYADSVRGRFTISRDNSKNTLYLQMNSLRAEDTAVYYCARDLVVYGMDVWGQGTTVTVSS
VL: DIQLTQSPSSLSASVGDRVTITCRASQGISSYLAWYQQKPGKAPKLLIYAASTLQSGVPSRFSGSGSGTDFTLTISSLQPEDFATYYCQHLNSDPHTFGQGTKLEIKR
B7: mAb15160 (antibody, V domains shown)
VH: EVQLVESGGGLVQPGGSLRLSCSASGFTFSRYAMYWVRQAPGKGLEYVSAISSDGGSTYDADSVKGRFTISRANSKNTLYLQMSSLRAEDTAVYYCVKGLRELLYYYYGMDVWGQGTTVTVSS
VL: DIQMTQSPSSLSASVGDRVTITCRAGQSISSFLNWYQQKPGKAPKLLIYAASSLQSGVPSRFSGSGSGTDFTLTISSLQPEDFATYYCQQSYITPFTFGPGTKVDIKR
B8: mAb15161 (antibody, V domains shown)
VH: EVQLVESGGGLVQPGGSLRLSCAASGFTFSSYEMNWVRQAPGKGLEWVSYISSSGSILYYADSVKGRFTASRDNAKNSLYLQMNSLRAEDTGVYYCARREYQLLRPFEFWGQGTLVTVSS
VL: not shown
B9: mAb15162 (antibody, V domains shown)
VH: EVQLVETGGGLIQPGGSLRLSCAASEFIVSRNYMSWVRQAPGKGLEWVSLIYSGGSTYYADSVKGRFTISRDNSKNILYLQMNSLRAEDTAVYYCARDRGGISDYWGQGTLVTVSS
VL: DIQMTQSPSSLSASVGDRVTITCQASQDINKYLNWFQQKPGKAPKLLIYDASNLETGVPSRFSGSGSGTDFTFTISSLQPEDIATYYCQQYDNLPRTFGQGTKLEIKR

Target: SARS-COV-2 RBD extracellular domain expressed with a C-terminal myc-myc-hexahistidine tag (SARS-COV-2 RBD-mmH) (SARS-CoV-2)
Experiment: SPR Biacore, mAb captured on anti-hFc, RBD-mmH analyte, 37 C

Compared with B1, B2 is lower in “RBD monomer bound at 50 nM (RU)” value: 162 RU for the first, 10.4 RU for the second.

First: B3
Second: B4
The “RBD monomer bound at 50 nM (RU)” value of the first is higher: 107 RU for the first, 65.7 RU for the second.

Compared with B5, B6 is lower in “RBD monomer bound at 50 nM (RU)” value: 44.3 RU for the first, 42 RU for the second.

Going from B7 to B8, the “RBD monomer bound at 50 nM (RU)” value falls from 79.3 RU to 61.1 RU.

For B9, the “RBD monomer bound at 50 nM (RU)” value was 38.9 RU.
